Measured values from several laboratories, pooled; numbers as filed in NIAID ChemDB.

All rows: tests in culture; species: Mycobacterium tuberculosis

ECn is the concentration giving n% inhibition of infection, replication or growth. Lines come from different laboratories, so protocols vary. Inhibition is in % at the dose shown (toxicity tests: loss of growth or viability). Blank or dashed fields: not listed here. MIC bound: limit read from a one-dose screen. MIC50, MIC90 and the like: level of inhibition, or share of isolates inhibited.

compound,strain,read by,measure,tested at,value
CO[C@@]12[C@H](COC(=O)NCCO)C3=C(C(=O)C(C)=C(N)C3=O)N1C[C@H]1[C@@H]2N1C,H37Rv,BACTEC,MIC bound,-,≤12.5 µg/mL
CCCCCCc1ccc(NC(=O)c2cc(Br)cc(Br)c2O)cc1,My 331/88,-,MIC,-,16 µM
COC(=O)C[C@H](NC(=O)[C@@H]1CCCN1C(=O)C(F)(F)F)C(=O)OC,H37Rv,resazurin,MIC bound,-,>6.25 µg/mL
CCCCCCCCCN1C(=O)CC(SCCN)C1=O,H37Rv,-,MIC,-,≤20 µg/mL
FC(F)(F)Oc1ccc(Oc2ccc(Nc3ncnc4cc(C(F)(F)F)ccc34)cc2)cc1,H37Rv,luminescence,MIC50,-,>50 µM
CCOC(=O)c1ccc(NC(=O)C(CC(=O)Nc2ccccc2)C(C)=O)cc1,H37Rv,-,inhibition,5 µg/mL,0%
Fc1ccc2c(Nc3ccc(N4CCCCC4)cc3)ncnc2c1,H37Rv,luminescence,MIC50,-,>50 µM
CC1(C)OC2OC(CO)C(NC(=O)C(F)(F)F)C2O1,H37Rv,BACTEC,inhibition,12.5 µg/mL,13%
FC(F)(F)c1ccc(Oc2ccc(Nc3ncnc4ccsc34)cc2)cc1,H37Rv,luminescence,MIC50,-,>20 µM
Cc1ccc2occ(C(O)Cc3nc4ccccc4s3)c(=O)c2c1,H37Rv,-,MIC,-,60 µM
COc1c2ccoc2nc2c3c(ccc12)OCO3,H37Rv,-,MIC,-,33 µg/mL
CCn1cc(C(=O)O)c(=O)c2cc(F)c(-n3cccc3)cc21,H37Rv,resazurin,inhibition,6.25 µg/mL,22%
COc1cc(-c2nnnn2S(=O)(=O)c2ccc(F)cc2)ccc1OCC(O)(Cn1cncn1)c1ccc(Cl)cc1Cl,H37Rv,resazurin,MIC100,-,6.25 µg/mL
Fc1ccc2c(Nc3ccc(-c4cccc(C(F)(F)F)c4)cc3)ncnc2c1,H37Rv,luminescence,MIC50,-,>50 µM
Cc1ccccc1OC/C(N)=N\NC(=O)c1ccncc1,INH-r,-,MIC,-,100 µg/mL
CCCc1ccc(NC(=O)c2cc(Br)ccc2O)cc1,My 331/88,-,MIC,-,2 µM
O=C(N/N=C(\COc1ccc(Cl)cc1)N=Cc1ccncc1)c1ccncc1,INH-r,-,MIC,-,50 µg/mL
O=c1c(C=Cc2sc3ccccc3[n+]2Cc2cccc(F)c2)coc2ccccc12,H37Rv,-,MIC,-,>500 µM
CCCCCCCCCN1C(=O)CC(C)C1=O,Clinical isolate (isoniazid-resistant),-,MIC,-,≤20 µg/mL
CCCCCCOCC(O)CNCCN,H37Rv,-,MIC bound,-,>6.25 µg/mL
CCCCc1nc(Cl)c(C2C(C(=O)Nc3cccc(Cl)c3)=C(C)NC(C)=C2C(=O)Nc2cccc(Cl)c2)[nH]1,H37Rv,resazurin,inhibition,6.25 µg/mL,82%
Cc1ccc(NC(=O)C(=O)CC(=O)c2c(C)n([O-])c3ccccc3[n+]2=O)cc1,H37Rv,BACTEC,inhibition,12.5 µg/mL,43%
O=c1c(C=Cc2nc3ccccc3s2)coc2ccc(Cl)cc12,H37Rv,-,MIC,-,250 µM
c1ccc(Oc2ccc(Nc3ncnc4ccccc34)cc2)cc1,H37Rv,luminescence,MIC50,-,>20 µM
COc1ccc(S(=O)(=O)n2nnnc2-c2ccc(OCC(O)(Cn3cncn3)c3ccc(Cl)cc3Cl)c(OC)c2)cc1,H37Rv,resazurin,MIC100,-,6.25 µg/mL
CCN(CC)C(=S)SSC(=S)N(CC)CC,H37Rv,BACTEC,MIC bound,-,≤128 µg/mL
COc1ccc(CCNc2ncnc3ccccc23)cc1,H37Rv,luminescence,MIC50,-,>10 µM
CCn1cc(C(=O)O)c(=O)c2cc(F)c(N3CCN(C)CC3)cc21,58 isolates,-,MIC50,-,4 µg/mL
O=C(N/N=C(\COc1cccc(Cl)c1)N=Cc1ccncc1)c1ccncc1,INH-r,-,MIC,-,50 µg/mL
CCOC(=O)c1ccc(NC(=O)C(CC(=O)Nc2cccc3ccccc23)C(C)=O)cc1,H37Rv,-,inhibition,5 µg/mL,0%
CCCCCCCc1ccc(NC(=O)c2cc(Cl)ccc2O)cc1,My 331/88,-,MIC,-,4 µM
NC(=O)c1cnccn1,ATCC 35828,-,MIC,-,2048 µg/mL
CCCCc1nc(Cl)c(C2C(C(=O)Nc3ccc(Cl)cc3)=C(C)NC(C)=C2C(=O)Nc2ccc(Cl)cc2)[nH]1,H37Rv,resazurin,inhibition,6.25 µg/mL,99%
CCCCCCCCCN1C(=O)CC(SCCNC(=O)C(CC)CCCC)C1=O,Clinical isolate (isoniazid-resistant),-,MIC,-,≤20 µg/mL
Cc1ccc2occ(C(O)Cc3nc4ccccc4[nH]3)c(=O)c2c1,H37Rv,-,MIC,-,60 µM
CC(C)(C)c1ccc(CCNc2ncnc3ccsc23)cc1,H37Rv,luminescence,MIC50,-,>10 µM
O=C(/C=C\c1ccccc1)/C=N/N1C(=S)N(c2ccccc2)C(=Nc2ccccc2)C1=Nc1ccccc1,H37Rv,BACTEC,MIC bound,-,>12.5 µg/mL
CC(=O)C(CC(=O)Nc1ccc(C)cc1)C(=O)Nc1cccc2ccccc12,H37Rv,-,inhibition,30 µg/mL,0%
CCCCCCCCCN1C(=O)CC(SCCNC(=O)c2ccc(OCCCCCC)cc2)C1=O,Clinical isolate (isoniazid-resistant),-,MIC,-,≤20 µg/mL
COC1OCC(N)C(O)C1O,H37Rv,BACTEC,inhibition,12.5 µg/mL,-3%
O=C(N/N=C(\COc1ccccc1)N=Cc1cccnc1)c1ccncc1,H37Rv(ATCC25584),-,MIC,-,25 µg/mL
Cc1nc(Nc2ccc(Oc3ccc(C(F)(F)F)cc3)cc2)c2ccc(F)cc2n1,H37Rv,luminescence,MIC50,-,>20 µM
CCCCCCCCCN1C(=O)CCCC1=O,H37Ra,-,MIC,-,≤20 µg/mL
CNC(=O)OCc1nc(N=[N+]=[N-])n(C)c1COC(=O)NC,H37Rv,resazurin,inhibition,6.25 µg/mL,-27%
COc1cc(-c2nnnn2S(=O)(=O)c2ccc(OC(F)(F)F)cc2)ccc1OCC(O)(Cn1cncn1)c1ccc(Cl)cc1Cl,H37Rv,resazurin,MIC100,-,6.25 µg/mL
CC(C)(C)c1ccc(NC(=O)c2cc(Cl)ccc2O)cc1,My 331/88,-,MIC,-,8 µM
CCOC(=O)[C@H]1O[C@@H]([C@@]2(C)O[C@]3(O[C@]4(C=C[C@H]3O)O[C@H]([C@@H](C)C(=O)[C@@H](C)[C@@H](O)[C@H](C)C[C@H](C)c3c(Cl)cc(C)c(O)c3C(=O)O)[C@@H](C)C[C@H]4C)[C@H](C)[C@H]2OC)C[C@H]1O,ETA-R,-,MIC,-,12.5 µg/mL
CC[n+]1c(C=Cc2coc3ccc(Cl)cc3c2=O)sc2ccccc21,H37Rv,-,MIC,-,125 µM
CCCCCCCCCN1C(=O)C=CC1=O,H37Ra,-,MIC,-,≤20 µg/mL
Nc1ccc(-n2cc(C(=O)O)c(=O)c3cc(F)c(N4CCCCC4)cc32)c(F)c1,H37Rv,BACTEC,inhibition,6.25 µg/mL,95%
O=C1NC(=Nc2ccc(Cl)cc2Cl)N/C1=C\c1ccc(Cl)cc1Cl,H37Rv,-,inhibition,12.5 µg/mL,96%
CCCCCCCCc1ccc(NC(=O)c2cc(Cl)ccc2O)cc1,My 331/88,-,MIC,-,4 µM
CC1=CC(=C(c2cc(C)c(O)c(C(=O)O)c2)c2cc(C)c(O)c(C(=O)O)c2)C=C(C(=O)O)C1=O,H37Rv,BACTEC,inhibition,6.25 µg/mL,0%
O=C1NC(Nc2ccccc2)=N/C1=C\c1c(Cl)cccc1Cl,H37Rv,-,MIC,-,>6.25 µg/mL
CCCCCCCCCN1C(=O)CC(SCCNC(=O)C2CC2)C1=O,Clinical isolate (isoniazid-resistant),-,MIC,-,≤20 µg/mL
CCn1cc(C(=O)O)c(=O)c2cc(F)c(N3CCN(Cc4ccc5cccc(O)c5n4)CC3)cc21,H37Rv,BACTEC,inhibition,6.25 µg/mL,86%
CCCCCCc1ccc(NC(=O)c2cc(Br)ccc2O)cc1,My 331/88,-,MIC,-,16 µM
Fc1cccc2c(Nc3ccc(Oc4ccc(C(F)(F)F)cc4)cc3)ncnc12,H37Rv,luminescence,MIC50,-,>50 µM
CN(C)c1ccc(/C=N/NC(=O)c2ccncc2)cc1,H37Rv,resazurin,MIC bound,-,<6.25 µg/mL
C[n+]1c(C=Cc2coc3ccccc3c2=O)sc2ccccc21,H37Rv,-,MIC,-,250 µM
CCCCCCCCCN1C(=O)CC(SCCNC(=O)C2CCCC2)C1=O,H37Rv,-,MIC,-,≤20 µg/mL
Fc1ccc2c(Nc3ccc(OC4CCN(c5ccc(C(F)(F)F)cc5)CC4)cc3)ncnc2c1,H37Rv,luminescence,MIC50,-,>10 µM
N#C/C(=C\NC(=S)c1ccncc1)C(N)=O,H37Rv,resazurin,inhibition,6.25 µg/mL,-130%
FC(F)(F)Oc1ccc(CCNc2nc(C3CC3)nc3ccccc23)cc1,H37Rv,luminescence,MIC50,-,9.4 µM
CSc1ccc(C(N)=O)c[n+]1C.[I-],H37Rv,BACTEC,inhibition,12.5 µg/mL,8%
COc1cccc(OC/C(N)=N\NC(=O)c2ccncc2)c1,INH-r,-,MIC,-,100 µg/mL
COc1ccc2ncc(C(=O)O)c(Nc3ccc(OCCCN4CCOCC4)cc3)c2c1,H37Rv,resazurin,MIC,-,30.68 µM
O=C(O)c1cn(-c2ccc([N+](=O)[O-])cc2)c2cc(N3CCOCC3)c(F)cc2c1=O,H37Rv,BACTEC,inhibition,6.25 µg/mL,6%
CCCCCCCCc1ccc(NC(=O)c2cc(Br)ccc2O)cc1,My 331/88,-,MIC,-,2 µM
Fc1ccc(Oc2cccc(CNc3ncnc4ccccc34)c2)cc1,H37Rv,luminescence,MIC50,-,>50 µM
O=C1NC(=NCc2ccc(Cl)cc2)N/C1=C\c1ccccc1Cl,H37Rv,-,MIC,-,>12.5 µg/mL
Cc1cccc(OC/C(N)=N\NC(=O)c2ccncc2)c1,INH-r,-,MIC,-,50 µg/mL
FC(F)(F)c1ccc(Oc2ccc(Nc3ncnc4ccccc34)cc2)cc1,H37Rv,luminescence,MIC50,-,>20 µM
CCOC(=O)c1ccc(NC(=O)C(CC(=O)Nc2ccccc2Cl)C(C)=O)cc1,H37Rv,-,inhibition,30 µg/mL,0%
Cc1cc(N)c2ccccc2[n+]1CCCCCCCCCC[n+]1c(C)cc(N)c2ccccc21,-,broth dilution,EC50,-,0.3 µg/mL
Cc1nc(NCCc2ccc(OC(F)(F)F)cc2)c2ccccc2n1,H37Rv,luminescence,MIC50,-,6.7 µM
CCCCc1nc(Cl)c(C2C(C(=O)Nc3ccccc3F)=C(C)NC(C)=C2C(=O)Nc2ccccc2F)[nH]1,H37Rv,-,MIC,-,6.25 µg/mL
O=[N+]([O-])c1cccc(-c2nnc(/N=C\c3ccco3)s2)c1,H37Rv,resazurin,MIC,-,3.125 µg/mL
CN(C)c1ccc(/C=N/N2C(=O)CSC2=S)c(Cl)c1,H37Rv,BACTEC,inhibition,12.5 µg/mL,23%
FC(F)(F)c1ccc(Oc2ccc(Nc3nc(C4CC4)nc4ccccc34)cc2)cc1,H37Rv,luminescence,MIC50,-,>20 µM
NC(N)=NS(=O)(=O)c1ccc(N=C2C(=O)Nc3ccccc32)cc1,H37Rv,BACTEC,inhibition,12.5 µg/mL,41%
FC(F)(F)c1ccc(N2CCN(c3ccc(Nc4ncnc5ccccc45)cc3)CC2)nc1,H37Rv,luminescence,MIC50,-,>20 µM
COc1cc(-c2nnnn2S(=O)(=O)c2ccc([N+](=O)[O-])cc2)ccc1OCC(O)(Cn1cncn1)c1ccc(Cl)cc1Cl,H37Rv,resazurin,MIC100,-,3.12 µg/mL
CC(=O)C1(C)C(=O)N(c2ccc([N+](=O)[O-])cc2)C(=O)N1c1ccc([N+](=O)[O-])cc1,H37Rv,BACTEC,inhibition,12.5 µg/mL,3%
O=C(N/N=C(\COc1ccc([N+](=O)[O-])cc1)N=Cc1cccnc1)c1ccncc1,H37Rv(ATCC25584),-,MIC,-,50 µg/mL
O=c1cc(N2CCNCC2)nc2ccccn12,H37Rv,resazurin,MIC bound,-,>6.25 µg/mL
Fc1ccc2c(Nc3ccc(N4CCCN(c5ccc(C(F)(F)F)cc5)CC4)cc3)ncnc2c1,H37Rv,luminescence,MIC50,-,>20 µM
O=C(OC[C@H]1O[C@@H](n2nc(N3CCOCC3)c(=O)[nH]c2=O)[C@H](OC(=O)c2ccccc2)[C@@H]1OC(=O)c1ccccc1)c1ccccc1,H37Rv,resazurin,inhibition,6.25 µg/mL,-5%
Cc1nc(Nc2ccccc2Oc2ccc(C(F)(F)F)cc2)c2ccc(F)cc2n1,H37Rv,luminescence,MIC50,-,>50 µM

For reference, 10 entries again:

compound,strain,read by,measure,tested at,value
Cc1nc(NCCc2ccc(OC(F)(F)F)cc2)c2ccccc2n1,H37Rv,luminescence,MIC50,-,6.7 µM
CCCCc1nc(Cl)c(C2C(C(=O)Nc3cccc(Cl)c3)=C(C)NC(C)=C2C(=O)Nc2cccc(Cl)c2)[nH]1,H37Rv,resazurin,inhibition,6.25 µg/mL,82%
CCCCCCCCc1ccc(NC(=O)c2cc(Cl)ccc2O)cc1,My 331/88,-,MIC,-,4 µM
CC(C)(C)c1ccc(NC(=O)c2cc(Cl)ccc2O)cc1,My 331/88,-,MIC,-,8 µM
FC(F)(F)c1ccc(Oc2ccc(Nc3ncnc4ccccc34)cc2)cc1,H37Rv,luminescence,MIC50,-,>20 µM
CN(C)c1ccc(/C=N/N2C(=O)CSC2=S)c(Cl)c1,H37Rv,BACTEC,inhibition,12.5 µg/mL,23%
Cc1ccccc1OC/C(N)=N\NC(=O)c1ccncc1,INH-r,-,MIC,-,100 µg/mL
CCOC(=O)[C@H]1O[C@@H]([C@@]2(C)O[C@]3(O[C@]4(C=C[C@H]3O)O[C@H]([C@@H](C)C(=O)[C@@H](C)[C@@H](O)[C@H](C)C[C@H](C)c3c(Cl)cc(C)c(O)c3C(=O)O)[C@@H](C)C[C@H]4C)[C@H](C)[C@H]2OC)C[C@H]1O,ETA-R,-,MIC,-,12.5 µg/mL
CCCCCCCCCN1C(=O)CC(C)C1=O,Clinical isolate (isoniazid-resistant),-,MIC,-,≤20 µg/mL
O=C1NC(Nc2ccccc2)=N/C1=C\c1c(Cl)cccc1Cl,H37Rv,-,MIC,-,>6.25 µg/mL